Experimental data as given in patent publication US20100029568A1, “TIGHTER-BINDING C-PEPTIDE INHIBITORS OF HIV-1 ENTRY” (priority 2007, published 2010).
Like-named read-outs stand apart in the source and are kept apart here.

How the values were obtained:
[1] = system: HIV-1 pseudotyped with wild type Env from strain HXB2 (HOS-CD4 target cells); format: cell-based
Description: All viral infectivity and cell-cell fusion experiments were performed as described in Chan, D., et. al., 1998, Proc. Natl. Acad. Sci. U.S.A. 95, 15613-15617. Briefly, the potency of C-peptides in inhibiting viral infection was determined using recombinant luciferase-expressing HIV-1 as described by Malashkevich, V. N., et. al., 1998, Proc. Natl. Acad. Sci. USA 95, 9134-9139. To produce virus, 293T cells were co-transfected with the envelope-deficient HIV-1 genome NL43LucR-E-(21) and the HXB2 gp160 expression vector pCMVHXB2 gp160 using calcium phosphate. Viral supernatants were cleared of cellular debris by low-speed centrifugation and used to infect HOS-CD4/Fusin cells (N. Landau, National Institutes of Health AIDS Reagent Program) in the presence of varying concentrations of C-peptide, ranging from 0 to 200 nM. Cells were harvested 48 hr postinfection, and luciferase activity was measured in a Wallac (Gaithersburg, Md.) AutoLumat LB953 luminometer. The IC50 is the peptide concentration that results in a 50% decrease in activity relative to control samples lacking peptide. For each peptide, data from three experiments were fit to a Langmuir equation [y=k/(1+([peptide]/IC50)], where y=luciferase activity and k is a scaling constant] to obtain the IC50 values.
HOS-CD4-Les cells were infected with HIV-1 pseudotyped with Env from HXB2 HIV-1 strain of either the wild type sequence or one of three variant sequences that confer resistance to C-peptides. The sequences of Res1 and Res2 Env, defined in FIG. 1, contain mutations in the gp41 HR1 region that decrease C-peptide binding affinity. The sequence of Res3 contains a mutation in the gp41 HR2 region (N637K) that confers partial resistance by enhancing the rate of viral membrane fusion. […]
The C37 variants generated were able to overcome resistance conferred by the HR1 region mutations. […] Infection took place in the presence and absence of C37 (FIG. 2A), C37-KYI (FIG. 2B) or (C37-GC)2 (FIG. 2C) and quantified by the expression of a luciferase-reporter construct. […]

[2] = target: T1, N36, structural mimic of the gp41 HR1 region (Human immunodeficiency virus type 1 group M subtype B, UniProt P04578); format: binding, HIV-1
T1 construct: a structural mimic of the gp41 HR1 region, the N-peptide known as N36
Source text: In FIG. 2, viruses pseudotyped with either wild type Env (closed squares) or V549E mutant Env (Res1, closed circles) from strain HXB2 were utilized to infect HOS-CD4-Les target cells. […] The Hr1 and HR2 regions of three gp41 form an intermediate structure called the trimer-of-hairpins which is necessary for the viral entry process and membrane fusion with the host membrane.

CC[C@H](C)[C@H](NC(=O)[C@H](CC(C)C)NC(=O)[C@H](CO)NC(=O)[C@H](Cc1c[nH]cn1)NC(=O)[C@@H](NC(=O)[C@H](CC(C)C)NC(=O)[C@H](CO)NC(=O)[C@@H](NC(=O)[C@H](Cc1ccc(O)cc1)NC(=O)[C@H](CCCCN)NC(=O)[C@H](CC(N)=O)NC(=O)[C@@H](NC(=O)[C@H](CCC(=O)O)NC(=O)[C@H](CCCNC(=N)N)NC(=O)[C@H](CC(=O)O)NC(=O)[C@H](Cc1c[nH]c2ccccc12)NC(=O)[C@H](CCC(=O)O)NC(=O)[C@H](CCSC)NC(=O)[C@H](Cc1c[nH]c2ccccc12)NC(=O)[C@@H](NC(=O)[C@@H](NC(=O)[C@H](Cc1c[nH]cn1)NC(=O)CNC(=O)CN)[C@@H](C)O)[C@@H](C)O)[C@@H](C)CC)[C@@H](C)CC)[C@@H](C)CC)C(=O)N[C@@H](CCC(=O)O)C(=O)N[C@@H](CCC(=O)O)C(=O)N[C@@H](CO)C(=O)N[C@@H](CCC(N)=O)C(=O)N[C@@H](CC(N)=O)C(=O)N[C@@H](CCC(N)=O)C(=O)N[C@@H](CCC(N)=O)C(=O)N[C@@H](CCC(=O)O)C(=O)N[C@@H](CCCCN)C(=O)N[C@@H](CC(N)=O)C(=O)N[C@@H](CCC(=O)O)C(=O)N[C@@H](CCC(N)=O)C(=O)N[C@@H](CCC(=O)O)C(=O)N[C@@H](CC(C)C)C(=O)N[C@@H](CC(C)C)C(=O)NCC(=O)NCC(=O)N[C@@H](Cc1c[nH]cn1)C(=O)N[C@@H](Cc1c[nH]cn1)C(=O)N[C@@H](Cc1c[nH]cn1)C(=O)N[C@@H](Cc1c[nH]cn1)C(=O)N[C@@H](Cc1c[nH]cn1)C(=O)N[C@@H](Cc1c[nH]cn1)C(=O)O [C37-KYI]
IC50 ([1]; Table 1, HXB2 wild type Env, HOS-CD4-Les cells, mean of 2 or 3 titrations, read-out: IC50 (±SEM), WT Env): 1 nM
IC50 ([1]; Table 2, read-out: IC50, WT HXB2): 1 ± 0.1 nM
IC50 ([1]; read-out: IC50 against viruses pseudotyped with EnvHXB2): ~1 nM
fold lower Kd than wild type C37 [2]: more than 20 fold
